Results reported in paper PMC11026403 (Communications Biology, 2024).

Target: A/Denmark/524/2009 (H1N1)pdm09 NA-H274 (Influenza A virus, UniProt C3W5S3)
Assay type: biochemical

Compound: CC(=O)N[C@H]1[C@H]([C@H](O)[C@H](O)CO)OC(C(=O)O)=C[C@@H]1N=C(N)N [zanamivir]
- IC50: 0.31 nM
